Values from PubChem BioAssay AID1224833 (University of Georgia, 2016)

Test: 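Host factors restraining rotavirus as candidate antiviral genes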 (primary screen)
System: monkey MA104 kidney cells
Knock-down reagent: siRNA pool against human genes, 50 nM
Time to read-out: 48 h knock-down before infection; read 24 h after infection
Treatment: infection with rotavirus strain RV3 two days after transfection; infectious dose for this stage not given
Measurement: 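Rotavirus antigen per well by fluorescent immunoassay, normalised to non-targeting control wells on each plate and given as a standard z-score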
Scale: z-score vs non-targeting control: higher = more rotavirus replication than with non-targeting control
Hit rule: In these data the active calls have z-score vs non-targeting control at about -1 or lower, or at about 1 or higher
Meaning of the calls: active = z-score beyond 1 either way; inactive = z-score within 1 of zero
The deposit covers about 12,000 reagents; below is a random part of them. In the full data, about 5,600 (46%) were called active. 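Active calls cover z-scores past 1 in both directions, so they include lowered as well as raised rotavirus replication.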

gene knocked down | z-score vs non-targeting control | call
EIF4A1 (GeneID 1973) | 1.68 | active
ZBTB45 (GeneID 84878) | -1.85 | active
CXorf38 (GeneID 159013) | 0.814 | inactive
FBN1 (GeneID 2200) | -1.26 | active
TIA1 (GeneID 7072) | -0.732 | inactive
PABPC4 (GeneID 8761) | -1.01 | active
NOXA1 (GeneID 10811) | -1.52 | active
PHYH (GeneID 5264) | -1.12 | active
EGR4 (GeneID 1961) | -0.635 | inactive
SLC44A4 (GeneID 80736) | -1.64 | active
RGS9BP (GeneID 388531) | 1.89 | active
COPB1 (GeneID 1315) | 0.0947 | inactive
RXFP4 (GeneID 339403) | -0.533 | inactive
TSLIG1 (GeneID 339487) | -0.32 | inactive
TLX3 (GeneID 30012) | 0.159 | inactive
CORO6 (GeneID 84940) | 1.66 | active
SMU1 (GeneID 55234) | 0.242 | inactive
CCDC14 (GeneID 64770) | -1.5 | active
ZNF484 (GeneID 83744) | -0.393 | inactive
CELF6 (GeneID 60677) | -0.708 | inactive
FLRT3 (GeneID 23767) | -0.551 | inactive
TPPP3 (GeneID 51673) | 0.432 | inactive
C11orf71 (GeneID 54494) | 3.29 | active
SLC17A2 (GeneID 10246) | -1.46 | active
RAVER1 (GeneID 125950) | 0.21 | inactive
AP2M1 (GeneID 1173) | 0.744 | inactive
POLR3A (GeneID 11128) | -1.53 | active
NIPA2 (GeneID 81614) | -0.763 | inactive
COL8A1 (GeneID 1295) | 1.62 | active
PCDHGA12 (GeneID 26025) | 0.356 | inactive
COLEC10 (GeneID 10584) | -2.75 | active
TOR4A (GeneID 54863) | -1.92 | active
TRABD (GeneID 80305) | -1.84 | active
TNFRSF6B (GeneID 8771) | -1.19 | active
AMOTL1 (GeneID 154810) | -0.234 | inactive
LRP5 (GeneID 4041) | 1.56 | active
PCDHA11 (GeneID 56138) | -1.25 | active
CPSF1 (GeneID 29894) | 2.13 | active
FOLR3 (GeneID 2352) | -1.5 | active
EZR (GeneID 7430) | 0.48 | inactive
LRRC25 (GeneID 126364) | -1.26 | active
SP3 (GeneID 6670) | -1 | active
QTRT2 (GeneID 79691) | -0.121 | inactive
RXRA (GeneID 6256) | 0.88 | inactive
RAB8A (GeneID 4218) | -1.97 | active
HAPLN4 (GeneID 404037) | -1.7 | active
TAS1R2 (GeneID 80834) | -0.717 | inactive
EBNA1BP2 (GeneID 10969) | 0.524 | inactive
LMNB1 (GeneID 4001) | -1.75 | active
CCL13 (GeneID 6357) | 1.42 | active
DNAJC22 (GeneID 79962) | -1.01 | active
GAL3ST2 (GeneID 64090) | -1.12 | active
GTPBP6 (GeneID 8225) | -0.927 | inactive
SORCS2 (GeneID 57537) | -1.22 | active
TINAG (GeneID 27283) | 1.72 | active
IL36R (GeneID 8808) | 1.56 | active
MAPK8IP3 (GeneID 23162) | -1.07 | active
PUM1 (GeneID 9698) | 0.114 | inactive
DPY19L2 (GeneID 283417) | -1.34 | active
COPA (GeneID 1314) | -1.66 | active
ETFBKMT (GeneID 254013) | -0.526 | inactive
DEFB118 (GeneID 117285) | -4.05 | active
PSMA1 (GeneID 5682) | 0.841 | inactive
PLB1 (GeneID 151056) | -3.05 | active
CDR1 (GeneID 1038) | -1.16 | active
TBC1D1 (GeneID 23216) | -1.11 | active
ORM1 (GeneID 5004) | 0.733 | inactive
CRACR2A (GeneID 84766) | 0.866 | inactive
CCL24 (GeneID 6369) | 0.329 | inactive
NFKBIA (GeneID 4792) | -0.495 | inactive
CYP11A1 (GeneID 1583) | -1.87 | active
EXOSC3 (GeneID 51010) | -0.566 | inactive
SIRT6 (GeneID 51548) | -3.58 | active
EIF4EBP1 (GeneID 1978) | -1.11 | active
THY1 (GeneID 7070) | 1.35 | active
RRM1 (GeneID 6240) | -3.06 | active
TOMM20 (GeneID 9804) | -1.95 | active
CABS1 (GeneID 85438) | 0.974 | inactive
IRX4 (GeneID 50805) | -0.881 | inactive
PLA2G3 (GeneID 50487) | 0.58 | inactive
BMP2 (GeneID 650) | -0.818 | inactive
AWAT2 (GeneID 158835) | -1.62 | active
SERPINF2 (GeneID 5345) | -0.379 | inactive
AMY2B (GeneID 280) | -2.38 | active
SNTG2 (GeneID 54221) | -2.88 | active
NDUFAF3 (GeneID 25915) | 2.89 | active
TM2D2 (GeneID 83877) | -0.501 | inactive
NFATC2IP (GeneID 84901) | 1.13 | active
VCX3A (GeneID 51481) | -1.4 | active
EPS8L3 (GeneID 79574) | 1.08 | active
LHX2 (GeneID 9355) | 1.52 | active
AP3B1 (GeneID 8546) | 1.06 | active
PRAME (GeneID 23532) | -1.74 | active
SLC29A1 (GeneID 2030) | -1.25 | active
UBALD2 (GeneID 283991) | 0.802 | inactive
DCAF13 (GeneID 25879) | 1.03 | active
PBXIP1 (GeneID 57326) | 0.837 | inactive
EML5 (GeneID 161436) | 0.53 | inactive
PCDHA1 (GeneID 56147) | -1.51 | active
ZNF668 (GeneID 79759) | -1.16 | active
MYEF2 (GeneID 50804) | -0.842 | inactive
RPLP0 (GeneID 6175) | -1.09 | active
LHX5 (GeneID 64211) | 0.893 | inactive
COL4A3 (GeneID 1285) | -1.09 | active
XPC (GeneID 7508) | 2.3 | active
TSC1 (GeneID 7248) | -1.11 | active
GNAT1 (GeneID 2779) | -1.75 | active
HNRNPU (GeneID 3192) | -1.34 | active
SEC24B (GeneID 10427) | 0.296 | inactive
ZNF581 (GeneID 51545) | -1.93 | active

Taken from above:
Result for RPLP0 (GeneID 6175) in “z-score vs non-targeting control”: -1.09
Value of DNAJC22 (GeneID 79962) in “call”: active
Value for EGR4 (GeneID 1961) under “call”: inactive
PHYH (GeneID 5264), call = active
Result of LMNB1 (GeneID 4001) in “z-score vs non-targeting control”: -1.75
Entry for COLEC10 (GeneID 10584) in “z-score vs non-targeting control”: -2.75
